Literature values as cited in patent publication US11054415B2, “Preparation of bioconjugates and antibodies for the immunodetection of anatoxin-a” (dated 2021).

Test system: mice

## CC(=O)C1=CCCC2CCC1N2 (stereo not shown)
  LD50 intraperitoneal in mice: 250 µg/kg
